Experimental data from PMC4942678.
This is a selection: effects in other tests are not listed, and their absence says nothing.

Biological target: TacT (T8) (Salmonella enterica, UniProt A0A0F6B8D8)
Conditions: labelled compound; acetyl donor; acceptor aminoacyl-tRNA extracted from S. Typhimurium 12023 delta-tacAT

Structure (SMILES): CC(=O)SCCNC(=O)CCNC(=O)[C@H](O)C(C)(C)COP(=O)(O)OP(=O)(O)OC[C@H]1O[C@@H](n2cnc3c(N)ncnc32)[C@H](O)[C@@H]1OP(=O)(O)O
- [14C]acetyl transfer to tRNA, acid-urea PAGE autoradiography: purified TacT, but not TacT^Y140F, acetylated free tRNA molecules extracted from ΔtacAT Salmonella
